These are literature values, as cited in paper PMC6470885 (Molecules, 2019).

The conditions of the data set: rat, in vivo; cited from earlier work.

As for Albuvirtide, the “half-life (t1/2)” value is 25.8 h.
